Compound potency records, mixed from different reports. Data source: NIAID ChemDB in PubChem.

Common to all: tests on isolated targets; organism: HIV-1; target: Reverse transcriptase; read by: nucleotide incorporation / radiometric; read-out: IC50

Two numbers with a dash give a range or band.

smiles | mutations | strain | value
CCN1c2ncc(CCc3ccncc3)cc2C(=O)N(C)c2ccc(N)nc21 | - | WT | <1 µM
CCN1c2ncc(CCOc3ccc(C(C)CC(=O)O)c4ccccc34)cc2C(=O)N(C)c2cccnc21 | RT-V106A | - | >1 µM
CCN1c2ncc(CCc3ccc4cc[nH]c4c3)cc2C(=O)N(C)c2ccc(Cl)nc21 | RT-Y181C | - | <1 µM
CCN1c2ncc(CCOc3ccc(CC(=O)NN)c4ccccc34)cc2C(=O)N(C)c2ccc(Cl)nc21 | RT-V106A | - | 0.1–1 µM
N#Cc1cc(Cl)cc(Oc2cc(Cl)cc(OCC(=O)NCC3CCS(=O)(=O)C3)c2)c1 | - | - | <20 µM
CCN1c2ncc(CCOc3ccc(C4CC4C(=O)O)c4ccccc34)cc2C(=O)N(C)c2ccc(F)nc21 | RT-Y188L | - | 0.1–1 µM
NS(=O)(=O)c1ccc(NC(=O)CSc2nnc(Br)n2-c2c(Cl)cc(C3CCC3)c3ccccc23)c(Cl)c1 | - | - | <0.05 µM
CN1C(=O)c2cc(CCc3ccncc3)cnc2N(C2CC2)c2nc(Cl)ccc21 | RT-Y181C | - | <1 µM
CCc1ccc(-n2c(Br)nnc2SCC(=O)Nc2ccc(C(=O)N3CCC(CN)CC3)cc2Cl)c2ccccc12 | - | - | <0.05 µM
CCN1c2ncc(CCc3ccnc(C(=O)OC)c3)cc2C(=O)N(C)c2ccc(Cl)nc21 | RT-Y181C | - | <1 µM
O=C(CSc1nnc(Br)n1-c1cccc2c(OCC3CC3)cccc12)Nc1ccc(C(=O)O)cc1Cl | RT-Y188L | - | >0.1 µM
NS(=O)(=O)c1ccc(NC(=O)CNc2cccc(Oc3ccccc3)c2)c(Cl)c1 | - | - | <20 µM
CCCCCCNC(=O)c1ccc(NC(=O)CSc2nnc(Br)n2-c2ccc(CC)c3ccccc23)c(Cl)c1 | RT-Y188L | - | >0.1 µM
CS(=O)(=O)c1ccc2c(c1)CCN2C(=O)COc1ccc(Cl)c(Oc2cc(Cl)cc(C#N)c2)c1 | - | - | <20 µM
CCc1ccc(-n2c(Br)nnc2SCC(=O)Nc2ccc(C(=O)O)cc2Cl)c2ccccc12 | - | - | <0.05 µM
N#Cc1cc(Cl)cc(Oc2cc(OCC(=O)Nc3ccc(S(N)(=O)=O)cc3Cl)ccc2Cl)c1 | - | - | <20 µM
Cc1cc(C)c2ccccc2c1-n1c(CF)nnc1SCC(=O)Nc1ccc(S(N)(=O)=O)cc1Cl | - | - | <0.05 µM
CCN1c2ncc(CC(F)c3ccncc3)cc2C(=O)N(C)c2ccc(Cl)nc21 | RT-Y181C | - | <1 µM
CCc1ccc(-n2c(CF)nnc2SCC(=O)Nc2ccc(S(N)(=O)=O)cc2Cl)c2c1CCCC2 | RT-Y181C | - | <0.05 µM
CN(CC(N)=O)c1ccc2c(COc3ccc(Cl)c(Oc4cc(Cl)cc(C#N)c4)c3)[nH]nc2n1 | - | - | <20 µM
CCN1c2ncc(CCc3cc[n+]([O-])cc3)cc2C(=O)N(C)c2ccc(Cl)nc21 | RT-Y181C | - | <1 µM
N#Cc1cc(Cl)cc(Oc2cc(Cl)cc(OCC(=O)Nc3ccc4[nH]cnc4c3Cl)c2)c1 | - | - | <20 µM
CC(C)OC(=O)CNC(=O)c1ccc(NC(=O)CSc2nnc(Br)n2-c2ccc(C3CC3)c3ccccc23)c(Cl)c1 | RT-Y188L | - | <0.05 µM
CCN1c2ncc(CCOc3ccc(/C=C/C(=O)O)c4ccccc34)cc2C(=O)Nc2c(C)ccnc21 | RT-V106A | - | 0.1–1 µM
N#Cc1cccc(Oc2cc(Cl)cc(OCC(=O)Nc3ccc(S(N)(=O)=O)cc3Cl)c2)c1 | - | - | <20 µM

A second listing of 4 rows from above:

smiles | mutations | strain | value
CC(C)OC(=O)CNC(=O)c1ccc(NC(=O)CSc2nnc(Br)n2-c2ccc(C3CC3)c3ccccc23)c(Cl)c1 | RT-Y188L | - | <0.05 µM
N#Cc1cc(Cl)cc(Oc2cc(Cl)cc(OCC(=O)Nc3ccc4[nH]cnc4c3Cl)c2)c1 | - | - | <20 µM
N#Cc1cc(Cl)cc(Oc2cc(Cl)cc(OCC(=O)NCC3CCS(=O)(=O)C3)c2)c1 | - | - | <20 µM
CCN1c2ncc(CCOc3ccc(/C=C/C(=O)O)c4ccccc34)cc2C(=O)Nc2c(C)ccnc21 | RT-V106A | - | 0.1–1 µM

ICn: concentration for n% inhibition. Rows are shuffled and stem from different studies. Blank or dashed fields: not listed here.